Test results published in patent US20090215029A1, “METHODS OF ISOLATING AND PURIFYING NUCLEIC ACID-BINDING BIOMOLECULES AND COMPOSITIONS INCLUDING SAME” (CytoCure, Inc., priority 2007, published 2009).

Test system: nucleic acids to a bound factor
Test: Cross-linking / fixative activity: effectiveness in covalently linking nucleic acids to a bound factor
Assay type: biochemical
Settings: additional fixative agents

quinacrine mustard
Activity as fixative agent: some activity
